Values from PubChem BioAssay AID624099 (ICCB-Longwood, 2012).
Assay: 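Human genes that papillomavirus E2 requires to repress the HPV18 LCR promoter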 (primary screen). System: human C33A cervical carcinoma cells (HPV-negative) stably expressing BPV1 E2 and an HPV18 LCR luciferase reporter. Knock-down reagent: siRNA pool against human genes, 40 nM. Time to read-out: 72 h. Measurement: 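HPV18 LCR reporter light per well, converted to plate-wise z-scores that exclude control wells, and averaged over triplicate plates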. Reading the numbers: mean z-score and z-score: higher = stronger reporter signal, weaker E2 silencing. Active means: 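Hit if mean z-score reaches 2 and two or more of three replicate z-scores also reach 2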.
The deposit covers about 21,000 reagents; this is a part drawn at random. 497 of all reagents (2.4%) were called active. 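Higher z means weaker E2 silencing; only reporter increases were scored, and knock-downs that hurt cell survival may mask genuine repressor factors.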 Unmarked entries are inactive. Reagents against one gene are numbered here.

no.	gene knocked down	pool no.	mean z-score	z-score, replicate A	z-score, replicate B	z-score, replicate C
1	EZH1	1	0.63	0.56	0.67	0.67
2	NEK1	1	0.94	0.56	1.64	0.63
3	DNASE1	1	-0.81	-0.36	-0.85	-1.22
4	PBX1	1	1.49	1.29	1.31	1.85
5	FRG1BP	1	-0.38	-0.49	-0.42	-0.23
6	NPAP1	1	-0.07	0.02	0.09	-0.32
7	UTS2R	1	-0.84	-0.76	-0.61	-1.16
8	VN1R3	1	0.22	0.23	-0.07	0.49
9	GABRA5	1	0.65	0.63	0.4	0.91
10	CARD6	1	-0.47	-0.44	-0.45	-0.52
11	CATSPERE	1	-0.31	-0.07	0.01	-0.88
12	CCT5	1	0.97	1.16	0.78	0.96
13	CREG1	1	0.57	0.88	0.53	0.3
14	PSMD8	1	-2.42	-2.39	-2.3	-2.57
15	LOC401740 (retired record)	1	1.05	0.79	1.59	0.79
16	HES5	1	-0.98	-1.14	-0.34	-1.45
17	TRPM2	1	-0.63	-0.51	-0.91	-0.47
18	GPR179	1	1.94	1.62	2.33	1.88
19	ARIH2	1	-0.87	-1.01	-0.93	-0.67
20	ADGRF5	1	0.07	0.11	0.15	-0.06
21	UNC45B	1	1.71	1.64	1.93	1.57
22	RPL39L	1	0.07	0.57	-0.12	-0.26
23	SLC10A6	1	-0.13	-0.34	0.18	-0.23
24	ETV5	1	-0.88	-0.84	-0.87	-0.94
25	PSMC3IP	1	-0.74	-0.45	-0.78	-0.98
26	CACFD1	1	1.21	1.22	1.31	1.08
27	CPNE7	1	-0.24	-0.36	-0.15	-0.21
28	ZNF774	1	0.3	0.64	0.26	-0.01
29	CERK	1	0.46	0.89	0.23	0.27
30	EEF1B2	1	-0.44	-0.44	-0.49	-0.4
31	KIAA0040	1	0.41	0.49	0.51	0.23
32	OR10K1	1	-0.37	-0.34	-0.31	-0.44
33	MIX23	1	1.01	0.88	1.32	0.85
34	UBE2E1	1	0.66	0.46	0.77	0.76
35	RPSAP49	1	-1.66	-1.61	-1.62	-1.74
36	SLC4A10	1	1.34	1.18	1.48	1.37
37	LRWD1	1	0.14	0	0.3	0.12
38	LRPAP1	1	-0.33	-0.57	-0.12	-0.29
39	ZCCHC7	1	1.46	1.58	1.2	1.61
40	OR2V2	1	-1.03	-1	-1.19	-0.92
41	ADAM29	1	1.77	1.42	2.02	1.87
42	NR3C1	1	1.61	1.73	1.61	1.49
43	NR3C1	2	-0.25	-0.51	-0.08	-0.17
44	AGR2	1	-0.05	0.01	-0.06	-0.09
45	TNPO3	1	0.49	0.49	0.45	0.53
46	STMN3	1	-0.37	-0.21	-0.45	-0.43
47	ZNF517	1	1.01	0.99	1.07	0.96
48	RP1	1	1.54	1.21	1.63	1.79
49	RGS13	1	-0.57	-0.49	-0.56	-0.67
50	TRAF2	1	-0.21	-0.24	-0.38	-0.02
51	PIGM	1	1.13	1.05	1.02	1.32
52	ACSBG1	1	1.15	0.88	2.11	0.46
53	CSGALNACT2P1	1	-0.46	-0.62	-0.25	-0.49
54	LOC389685 (retired record)	1	1.15	1.06	1.22	1.19
55	SLC40A1	1	0.18	0.01	0.19	0.34
56	SYPL2	1	1.89	1.71	1.59	2.37
57	GPRASP3	1	0	0.24	-0.16	-0.09

A stretch from the list above, as a working copy:
no.	gene knocked down	pool no.	mean z-score	z-score, replicate A	z-score, replicate B	z-score, replicate C
45	TNPO3	1	0.49	0.49	0.45	0.53
46	STMN3	1	-0.37	-0.21	-0.45	-0.43
47	ZNF517	1	1.01	0.99	1.07	0.96
48	RP1	1	1.54	1.21	1.63	1.79
